This data set can be described thus: general procedure: solution-phase peptide synthesis; EDC.HCl/HOBt; also HBTU/HOBt and DCC/HOBt.
[1] abbreviates: late stage modification step, run 1.
Setting [2] is: late stage modification step, run 2.

The star is where a group is joined. ClZ = O=C(OCc1ccccc1Cl)*; Boc = CC(C)(C)OC(=O)*; OBn = c1ccc(CO*)cc1; Bn = c1ccc(C*)cc1; Acm = CC(=O)NC*

“Boc-Phe-Tyr(Cl2-Bzl)-Asn-Ser(Bzl)-Glu(OBzl)-Asn-Lys(Cl-Z)-Thr(Bzl)-Tyr(Cl2-Bzl)-Asp(OBzl)-Leu-Asp(OBzl)-Phe-Lys(Cl-Z)-Thr(Bzl)-Pro-Asn-Asn-Asp(OBzl)-Gly-Gly-OBzl”: under “coupling step”, the step yield stood at 73%. In the case of “Boc-Cys(Acm)-Gly-Gly-Ala-Ser(Bzl)-Glu(OBzl)-Phe-Tyr(Cl2-Bzl)-Asn-Ser(Bzl)-Glu(OBzl)-Asn-Lys(Cl-Z)-Thr(Bzl)-Tyr(Cl2-Bzl)-Asp(OBzl)-Leu-Asp(OBzl)-Phe-Lys(Cl-Z)-Thr(Bzl)-Pro-Asn-Asn-Asp(OBzl)-Gly-OTc”, the step yield (coupling step) is reported as 69%. Regarding “Boc-Phe-Tyr(Cl2-Bzl)-Asn-Ser(Bzl)-Glu(OBzl)-Asn-Lys(Cl-Z)-Thr(Bzl)-Tyr(Cl2-Bzl)-Asp(OBzl)-Leu-Asp(OBzl)-Phe-Lys(Cl-Z)-Thr(Bzl)-Pro-Asn-Asn-A sp(OBzl)-Gly-OTce”, for the setting “coupling step”, the step yield is 42%. For the substance “Boc-Phe-Tyr(Cl2-Bzl)-Asn-Ser(Bzl)-Glu(OBzl)-OTce”, the step yield by setting is: (coupling step, run 1) 95%; (coupling step, run 2) 91%. In turn, “Boc-Asp(OBzl)-Phe-Lys(Cl-Z)-Thr(Bzl)-Pro-Asn-Asn-Asp(OBzl)-Gly-OTce” displayed a step yield (coupling step) of 66%.

As to Boc-C(Acm)GGAS(Bn)E(OBn)-OH, under “late stage modification step”, the step yield is recorded as 72%. For the substance Boc-D(OBn)FK(ClZ)T(Bn)P-OH, the step yield was 81% under setting [1] and 91% under setting [2]. For the setting “coupling step”, “Boc-Asn-Lys(Cl-Z)-Thr(Bzl)-Tyr(Cl2-Bzl)-Asp(OBzl)-Leu-Asp(OBzl)-Phe-Lys(Cl-Z)-Thr(Bzl)-Pro-Asn-Asn-Asp(OBzl)-Gly-Gly-OBzl” showed a step yield of 94%.

For “Boc-[Glu(OBzl)]2-Ala-Ser(Bzl)-Glu(OBzl)-OTce”, the step yield (coupling step) was determined as 92%. On to “Boc-Asp(OBzl)-Phe-Lys(Cl-Z)-Thr(Bzl)-Pro-OTce”, for which the step yield is, setting by setting: (coupling step, run 1) 85%; (coupling step, run 2) 78%.

The substance “Boc-Glu(OBzl)-Ala-Ser(Bzl)-Glu(OBzl)-OTce” showed a step yield (coupling step) of 94%. Same read-out and setting: the result for “Boc-[Glu(OBzl)]3-Ala-Ser(Bzl)-Glu(OBzl)-OTce” reads 89%. Take H-EEEEASEFYNSENKTYDLDFKTPNNDGG-OH: the step yield (late stage modification step) was determined as 81%. Boc-NND(OBn)GG-OBn came in with a step yield (coupling step) of 64%. In turn, “Boc-[Glu(OBzl)]4-Ala-Ser(Bzl)-Glu(OBzl)-OH” came in with a step yield (late stage modification step) of 90%. The same measure, in the same setting: the figure for H-C(Acm)GGASEFYNSENKTYDLDFKTPNNDG-OH is 77%. Turning to “Boc-Lys(Cl-Z)-Thr(Bzl)-Tyr(Cl2-Bzl)-Asp(OBzl)-Leu-OTce”, the step yield (coupling step) was 89%. “Boc-[Glu(OBzl)]4-Ala-Ser(Bzl)-Glu(OBzl)-OTce” returned a step yield (coupling step) of 90%.

As for “Boc-Thr(Bzl)-Tyr(Cl2-Bzl)-Asp(OBzl)-Leu-OTce”, the step yield (coupling step) is 76%. Boc-Gly-Ala-Ser(Bzl)-Glu(OBzl)-OTce yielded a step yield (coupling step) of 89%.

Substance Boc-Asn-Asn-Asp(OBzl)-Gly-OTce yielded a step yield (coupling step) of 87%. Still for that read-out and setting: the figure for Boc-Gly-Gly-Ala-Ser(Bzl)-Glu(OBzl)-OTce is 92%; for Boc-Asn-Asp(OBzl)-Gly-Gly-OBzl) it is 81%; for “Boc-Glu(OBzl)-Glu(OBzl)-Glu(OBzl)-Glu(OBzl)-Ala-Ser(Bzl)-Glu(OBzl)-Phe-Tyr(Cl2-Bzl)-Asn-Ser(Bzl)-Glu(OBzl)-Asn-Lys(Cl-Z)-Thr(Bzl)-Tyr(Cl2-Bz) -Asp(OBzl)-Leu-Asp(OBzl)-Phe-Lys(Cl-Z)-Thr(Bzl)-Pro-Asn-Asn-Asp(OBzl)-Gly-Gly-OBzl” it is 77%.

For “Boc-Cys(Acm)-Gly-Gly-Ala-Ser(Bzl)-Glu(OBzl)-Phe-Tyr(Cl2-Bzl)-Asn-Ser(Bzl)-Glu(OBzl)-Asn-Lys(Cl-Z)-Thr(Bzl)-Tr(Cl2-Bzl)-Asp(OBzl)-Le u-Asp(OBzl)-Phe-Lys(Cl-Z)-Thr(Bzl)-Pro-Asn-Asn-Asp(OBzl)-Gly-OH”, the step yield (late stage modification step) stood at 62%. Consider “Boc-Tyr(Cl2-Bzl)-Asn-Ser(Bzl)-Glu(OBzl)-OTce”, for which the step yield reads like this: (coupling step, run 1) 73%; (coupling step, run 2) 82%. “Boc-Asn-Lys(Cl-Z)-Thr(Bzl)-Tyr(Cl2-Bzl)-Asp(OBzl)-Leu-OTce”: the step yield (coupling step) amounted to 94%. As to “Boc-Phe-Tyr(Cl2-Bzl)-Asn-Ser(Bzl)-Glu(OBzl)-OH”, under “late stage modification step”, the step yield is reported as 95%. Consider “Boc-Asn-Lys(Cl-Z)-Thr(Bzl)-Tyr(Cl2-Bzl)-Asp(OBzl)-Leu-Asp(OBzl)-Phe-Lys(Cl-Z)-Thr(Bzl)-Pro-Asn-Asn-Asp(OBzl)-Gly-OTce”, for which, where the note is “coupling step”, the step yield is given as 75%. Take “Boc-Asn-Lys(Cl-Z)-Thr(Bzl)-Tyr(Cl2-Bzl)-Asp(OBzl)-Leu-OH”: the step yield runs as follows: under setting [1], 88%; under setting [2], 89%.

Consider Boc-Phe-Lys(Cl-Z)-Thr(Bzl)-Pro-OTce, for which the step yield (coupling step, run 1) was 69% and the step yield (coupling step, run 2) is given as 78%.

The substance Boc-D(OBn)FK(ClZ)T(Bn)PNND(OBn)GG-OBn showed a step yield (coupling step) of 63%.

(Values after patent publication US7713926B2 (National University Corporation Gunma University, priority 2004, dated 2010).)
